Source: ChEMBL document CHEMBL3988442, “University of Dundee, Small-Polar-MMV Screening Library” (2021).

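Phenotypic screen: M. tuberculosis growth, glucose 7H9 medium, 3 days; the read-out is not stated. Tested at 50 µM. Higher reads as more growth inhibition (inferred: compounds with an IC50 in retests scored well above the rest). About 69,000 compounds were tested under these conditions; 1.1% (about 760) showed 50% or more at least once.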

Each number is a percent effect as filed. How 0% and 100% were set is not recorded. Most values in the screen are low, and negative values occur. The entries come from a sample that favours strong results. Two or more numbers in one place are separate tests of the same structure; such repeats can differ widely.

| compound | Percent Effect |
|---|---|
| `CC(C)NCc1nc(-c2ccc3c(c2)OCO3)c[nH]1.Cl.Cl` | 111.8 and 3.985 |
| `COC(=O)c1cccc(NCC(=O)NC(N)=O)c1` | -24.9 |
| `Cc1cc(=O)n(CC(=O)Nc2ccc(Cl)cc2)nc1C` | 6.768 |
| `CCN1CC(COC(=O)c2ccc(N(C)C)cc2F)CC1=O` (configuration not stated) | 4.26 |
| `O=C(Cn1cccn1)NCC1(c2ccccc2)CC1` | -3.786 |
| `CC[C@H](C)[C@@H](CO)NC(C)Cc1ccc(F)cc1` (some centres not stated) | 10.15 |
| `COc1ccc(CN2CCOC[C@H](OCc3ccccc3)C2)cc1` | 26.03 and 17.56 |
| `Cc1nc(N2CCOCC2)nc2c1CCN(Cc1cccnc1)CC2.O=C(O)C(F)(F)F` | -3.528 |
| `O=C(O)C(F)(F)F.OCCN1CCC2(CCc3cc(-c4ccoc4)ccc32)CC1` | 51.75 and 45.47 |
| `CC(C)Cc1cc(NC(=O)c2cc(Cl)c[nH]2)n(C)n1` | 56.99 |
| `Cc1cccc(CN2CCC3(CCN(c4ncccn4)C3)C2=O)c1` (configuration not stated) | -15.39 |
| `O=C(CSCC1CC1)N1CCCN(Cc2ccc(F)cc2)CC1` | -28.09 and -0.5773 |
| `COc1ccc(C[C@H]2CN(C(=O)c3ccncc3)CC[C@@H]2OC)cc1.O=C(O)C(F)(F)F` | -27.32 |
| `CC(C)Cc1ncc2c(n1)CN(c1nccc(N(C)C)n1)C2` | -83.81 and -1.8 |
| `CN1CCN(C(=O)c2cnsn2)c2cc(F)ccc21` | 1.599 |
| `COc1ccc(NC(=O)c2nc3ccccc3n(C)c2=O)cc1OC` | 9.869 |
| `CC(C)(C)CC(=O)N1CCc2sccc2C1` | -7.177 and -0.8459 |
| `Cc1ccc(Br)cc1C(=O)Nc1cc(C(N)=O)n(C)c1` | 16.11 |
| `Cc1nc(CN2CCCC(N(C)Cc3cscn3)C2)no1` (configuration not stated) | 58.23 |
| `Cc1cc(=O)[nH]c(-n2nc(-c3ccccc3)cc2N)n1` | 75.81 |
| `Cc1cc(N2CCC(CO)(CC3CCCCO3)CC2)c2ccccc2n1` (configuration not stated) | -6.765 and 9.711 |
| `O=C(CCNC(=O)C1=Cc2ccccc2OC1)NCc1ccncc1` | 13.59 and -4.247 |
| `O=C(O)C(F)(F)F.O=C(O)C(F)(F)F.[H][C@@]12CN(Cc3ccccn3)C[C@]1([H])C(=O)N(c1ccsc1)C2` | 3.415 |
| `CC(=O)NCCNC(=O)c1cnc2c(c1)nc(-c1ccccc1Cl)n2C` | 0.05814 and 6.415 |
| `Cc1cc(-c2cnc(NCc3ccncc3)nc2C(C)C)on1` | 54.58 |
| `N#Cc1ccc(N2CCCN(CC(=O)N3CCC3)CC2)cc1` | 3.936 |
| `Cc1cc(Cc2ccccc2F)cc(C2CCCNC2)n1` (configuration not stated) | 8.744 |
| `CCS(=O)(=O)N1CCN(c2cc(-n3cnc(C)c3C)nc(C)n2)CC1` | 50.4 |
| `Cc1noc(C)c1NC(=O)Cn1cc(Br)ccc1=O` | -15.87 and 2.299 |
| `CN(Cc1cccc(OC(F)(F)F)c1)C(=O)c1cnsn1` | 35.56 |
| `O=C(c1cncc2ccccc12)N1CCC[C@@H]1CO` | 8.602 |
| `Cc1ccc(CN2CC(C(=O)Nc3ccccc3)C3(CCOCC3)C2)s1.O=C(O)C(F)(F)F` (configuration not stated) | 57.87 |
| `CC(C)C1=NOC(c2nc(Cc3ccccc3)no2)C1` (configuration not stated) | 55.29 |
| `COc1ccc(C[C@H]2CN(c3nnc(C)s3)CC[C@@H]2OC)cc1.O=C(O)C(F)(F)F` | 55.78 |
| `Cc1cccnc1CN(C)C(C(=O)O)c1ccc(-n2cccn2)cc1` (configuration not stated) | 82.27 |
| `Cc1noc(CCCC(=O)NC(C)c2ccccn2)n1` (configuration not stated) | -8.147 |
| `FC(F)(F)c1cccc(OC2CCN(Cc3ncc[nH]3)CC2)c1` | 24.1 |
| `Cc1nc(NC(=O)COCC2CC2)ccc1Br` | 43.64 |
| `c1cnc(N2CCOCC3(CCN(c4cnccn4)CC3)C2)nc1` | -3.731 |
| `Cc1cc(=O)[nH]c(-n2nc(C3CC3)cc2N)n1` | 78.46 |
| `CCn1nccc1CNC(=O)C1CCCO1` (configuration not stated) | 8.513 |
| `CN(C(=O)Cn1nnnc1C(C)(C)C)c1ccccc1` | 5.804 |
| `O=C(NCc1cccnc1)NCC(O)c1cccc(C(F)(F)F)c1` (configuration not stated) | -4.499 |
| `O=C1N(Cc2ccc(F)c(F)c2)CCCC12CCN(C1CCCCC1)C2` (configuration not stated) | 66.83 and 72.71 |
| `Fc1ccc(CN[C@@H]2COC[C@H]2c2ccc(F)cc2)cc1.O=C(O)CC(O)(CC(=O)O)C(=O)O` | 8.334 |
| `Cc1ccccc1-n1cc(-c2ccnc(N3CCCC(O)C3)n2)cn1` (configuration not stated) | 7.994 and 15.59 |
| `CCNC(=O)CCC(=O)NC(C)Cc1ccccc1Br` (configuration not stated) | 35.94 |
| `O=C(CC(SC1CCCCC1)C(=O)O)c1ccc(Cl)cc1` (configuration not stated) | 9.413 and 8.927 |
| `CCCNC(=O)NC(=O)CNC(C)(C)c1ccc2c(c1)OCCO2` | 71.97 and 78.37 |
| `COc1ccc2c(c1)c(-c1nc(N(C)C)ncc1CN)cn2C` | 56.12 |
| `Cc1cc(NCCC(=O)NC(C)C)nc(-c2ccncc2)n1` | 68.7 |
| `CC(=O)N1CCCC(c2ccccn2)C1` (configuration not stated) | -33.15 |
| `Cc1cccnc1C(Cc1ccsc1)NCc1cnc(N(C)C)nc1` (configuration not stated) | 3.576 |
| `CC(C)(C)c1n[nH]cc1CNC1CCC(O)CC1` (configuration not stated) | 7.338 |
| `c1ccc2oc(NC3CCCN(Cc4noc(C5CC5)n4)C3)nc2c1` (configuration not stated) | 69.95 |
| `CNC(=O)NCCc1csc2ccccc12` | 60.66 |
| `CS(=O)(=O)NC[C@H]1Cn2c(-c3ccc(Cl)cc3)cnc2CO1` | -12.11 and 52.47 |
| `COc1cccc(NC(=O)Cn2c(=O)nc(N)c3cc(C)sc32)c1` | 3.761 |
| `c1cc(CN2CCOC3(CCCC3)C2)no1` | -3.683 and -5.545 |
| `Cc1ccc(CSc2nc(N)cc(NCCC(=O)N3CCCC3)n2)cc1` | 37.2 and 12.89 |
| `COc1cc2cc(C)c(SCCN3CCCCC3)nc2cc1OC.Cl` | 52.64 |
| `CCCn1c(N2CCCC(C)C2)nc2c(C)nn(C)c2c1=O` (configuration not stated) | 60.34 |
| `Cc1ccccc1N1CCN(c2ccncn2)C(C)C1` (configuration not stated) | 31.64 and 22.57 |
| `CCCS(=O)(=O)NCC(O)c1c(Cl)cccc1Cl` (configuration not stated) | 8.117 and 2.064 |
| `COc1cccc(CN2CCc3nc4ccsc4c(=O)n3CC2)c1.Cl` | -33.06 |
| `CN(C)c1nccc(C2CCN(c3ncccn3)CC2)n1` | 54.57 |
| `OCCn1nnnc1Cc1ccc(Br)cc1` | 41.85 |
| `O=C(OCCNc1ncccn1)c1ccc(Br)s1` | 51.5 |
| `[H][C@]12CC[C@]([H])(CN(S(=O)(=O)c3cccc(F)c3)C1)N(Cc1ccccc1)C2` | 52.45 |
| `Cc1nc(N2CCOCC2)nc(C)c1NC(=O)Cc1ccc(Cl)cc1` | -23.19 and -6.371 |
| `CCc1csc(C2CCCN(C(=O)c3c[nH]c(C)n3)C2)n1` (configuration not stated) | 5.304 |
| `CN1CCN(C(=O)CC2CCN(CCc3ccccn3)CC2)CC1` | 14.97 |
| `CCc1c(C)nc(-n2nc(C3CC3)cc2NC(C)=O)[nH]c1=O` | -14.94 |
| `CCc1c(C)sc(NC(=O)CN2CCN(CC)CC2)c1C(=O)OC` | 73.38 and 81.48 |
| `CC1(c2ccccc2)CCCN(Cc2cncn2C2CCCC2)C1` (configuration not stated) | 70.77 |
| `COCc1noc(-c2nn(-c3ccccc3F)c3c2CCC3)n1` | 45.95 |